Anti-infective test results gathered from many reports (values: NIAID ChemDB through PubChem).

All rows: growth or infection tests; species: HIV-1; cell line: MT-2; read-out: EC90

Conditions beyond the fields shown may differ between rows. Blank or dashed fields: not listed here. ECn is the concentration giving n% inhibition of infection, replication or growth.

SMILES	strain	changes	method	result
COCCNC(=O)[C@@H](NC(=O)[C@H](Cc1ccc2c(c1)OCO2)C[C@H](O)[C@H](Cc1ccccc1)NC(=O)OC(C)(C)C)C(C)C	MN	-	RT activity	0.03 µM
CCCCC#CC1(C(F)(F)F)OC(=O)Nc2cccc(F)c21	RF	-	-	0.00564 µM
COCCNC(=O)[C@@H](NC(=O)[C@H](Cc1ccccc1)C[C@H](O)[C@H](Cc1ccccc1)NC(=O)OC(C)(C)C)C(C)C	MN	-	RT activity	0.1 µM
CC(=O)Nc1ccc2c(c1)C(C#CCC(C)C)(C(F)(F)F)OC(=O)N2	RF	-	-	0.5 µM
COCCNC(=O)[C@@H](NC(=O)[C@H](Cc1cccc(OC)c1)C[C@H](O)[C@H](Cc1ccccc1)NC(=O)OC(C)(C)C)C(C)C	MN	-	RT activity	0.03 µM
CN1C(=O)[C@H](Cc2ccc(O)cc2)n2cccc2-c2ccccc21	IIIB	-	cytopathic effect / XTT	>5.2 µg/mL
O=S1(=O)Nc2ccc(Cl)cc2C(C#CC2CC2)(C2CC2)N1	RF	-	-	0.279 µM
Nc1n[nH]c2ccc(CN3C(=O)N(CC4CCC4)[C@H](Cc4ccccc4)[C@H](O)[C@@H](O)[C@H]3Cc3ccccc3)cc12	RF	PR-S184V	-	0.53 µM
O=C(O)c1cc(-n2cccc2)ccc1Cl	AZT-resistant X4 CLADE B	-	p24	94.28 µM
O=C1c2ccccc2C(=O)N1CCCCN1C(=O)[C@H](Cc2ccc(O)cc2)n2cccc2-c2ccccc21	IIIB	-	cytopathic effect / XTT	>23 µg/mL
CCCCCCN1C(=O)N(Cc2ccc3[nH]nc(N)c3c2)[C@H](Cc2ccccc2)[C@H](O)[C@@H](O)[C@H]1Cc1ccccc1	RF	-	-	0.756 µM
O=Cc1ccc2n1CC(=O)Nc1ccccc1-2	IIIB	-	cytopathic effect / XTT	>50 µg/mL
O=C1Nc2ccc(F)c(F)c2[C@@](C#CC2CC2)(C(F)(F)F)N1	RF	-	-	0.0013 µM
CC(C)[C@H](NC(=O)[C@H](Cc1ccc(O)cc1)C[C@H](O)[C@H](Cc1ccccc1)NC(=O)OC(C)(C)C)C(=O)N[C@@H](Cc1ccccc1)C(=O)N1CCOCC1	MN	-	RT activity	0.3 µM
O=C1Nc2ccc(Cl)cc2[C@@](C#CC2CC2)(C(F)(F)F)N1	RF	-	-	0.002 µM
O=C1Nc2ccccc2-c2cccn2[C@H]1Cc1ccccc1	IIIB	-	cytopathic effect / XTT	>21 µg/mL
COc1ccc(C[C@H](C[C@H](O)[C@H](Cc2ccccc2)NC(=O)OC(C)(C)C)C(=O)N[C@H](C(=O)N[C@@H](Cc2ccccc2)C(=O)N2CCOCC2)C(C)C)c(OC)c1OC	MN	-	RT activity	1 µM
CC(C)C1(C#CC2CC2)NS(=O)(=O)Nc2ccc(Cl)cc21	RF	-	-	0.677 µM
CC(C)[C@H](NC(=O)[C@H](Cc1ccc2c(c1)OCO2)C[C@H](O)[C@H](Cc1ccccc1)NC(=O)OC(C)(C)C)C(=O)NCCN(C)C	MN	-	RT activity	0.1 µM
O=C1Nc2ccc(F)c(F)c2[C@@](/C=C/C2CC2)(C(F)(F)F)N1	RF	-	plaque count / virus yield	0.0027 µM